Results of unrelated studies side by side (data: NIAID ChemDB).

Shared fields: growth or infection tests; species: Mycobacterium tuberculosis

MIC50, MIC90 and the like: level of inhibition, or share of isolates inhibited. MIC bound: limit read from a one-dose screen. Two numbers with a dash give a range or band. ECn: concentration that inhibits the pathogen or its effect by n%. An empty or dashed field is not shown. Inhibition is in % at the dose shown (toxicity tests: loss of growth or viability). Neighbouring rows are from separate reports.

smiles,strain,cells,dose,mutations,read by,measure,value
c1csc(-c2ncnc3nc[nH]c23)c1,H37Rv,-,-,-,-,EC50,>6.25 µg/mL
COc1ccccc1/C=C(\C#N)n1nnc2ccccc21,ATCC 27294,-,-,-,-,MIC90,80.2 µM
COc1ccc2c(c1)c(CC(=O)NN)c(C)n2C(=O)c1ccc(Cl)cc1,-,-,-,-,-,EC50,<0.125 µg/mL
O=C(CNC(=O)Nc1n[nH]c(=S)s1)N/N=C/c1ccc2c(c1)OCO2,H37Rv,-,12.5 µg/mL,-,BACTEC,inhibition,2%
O=C(NCC(=O)N1CCN(c2ccc(N3C[C@H](Cn4ccnn4)OC3=O)cc2F)CC1)C1=CC=C([N+](=O)[O-])C1,SRI 1367,-,-,Rifampicin-resistant,broth dilution / visual reading,MIC,0.46 µM
NNC(=O)CCc1cnc(C2C3CC4CC(C3)CC2C4)[nH]1,H37Rv,-,6.25 µg/mL,-,-,inhibition,14%
Cc1ccc(-n2c3cc(=NC(C)C)c(Nc4ccc(Cl)cc4)cc-3nc3ccccc32)cc1,H37Rv,-,-,-,resazurin,MIC90,>42.45 µg/mL
CCCCCCC/C=C\CCCCCCCC(=O)O,ATCC 27294 H37Rv,-,-,-,resazurin,MIC100,100 µg/mL
O=C(O)c1nc(C2CCCCC2)[nH]c1C1CCCCC1,H37Rv,-,6.25 µg/mL,-,-,inhibition,1%
O=C(/C=C/c1ccc(F)cc1)NNC(=O)c1ccncc1,H37Rv,-,-,-,resazurin,MIC,89.5 µM
O=C(O)c1cn(C2CC2)c2c(Cl)c(N3C[C@@H]4CCCN[C@@H]4C3)c(F)cc2c1=O,82 strains,-,-,-,-,MIC50,0.01 µg/mL
NNC(=O)c1ccncc1,H37Rv,-,-,Isoniazid-resistant katG Y155 truncation,absorbance,MIC,>200 µM
NC(=S)NNS(=O)(=O)c1ccc(N)cc1,-,-,-,-,-,MIC,1 µg/mL
Cc1cc(=O)n2[nH]c(Nc3ccc(F)c(F)c3)c(C(=O)Nc3ccc(F)cc3)c2n1,H37Rv,-,-,-,resazurin,MIC,0.8 µg/mL
Cc1c(Cc2ccccc2Cl)c(=O)n2c([nH]c3ccccc32)c1C#N,H37Rv,-,-,-,resazurin,MIC90,>128 µg/mL
COc1ccc(Nc2[nH]n3c(=O)cc(C)nc3c2C(=O)Nc2ccc(C)cc2C)cc1,H37Rv,-,-,-,resazurin,MIC,50 µg/mL
Cc1c(Cc2cccc(Cl)c2)c(=O)n2c([nH]c3ccccc32)c1C#N,H37Rv,-,-,-,resazurin,MIC90,>128 µg/mL
c1coc(-c2ncnc3c2ncn3C2CCOCC2)c1,H37Rv,-,-,-,-,EC50,>6.25 µg/mL
COc1ccc(CCN2C(=O)C(=O)N(c3ccc([N+](=O)[O-])cc3)C2=O)cc1OC,H37Rv,-,-,-,BACTEC,MIC bound,>12.5 µg/mL
CN(C)C/C=C(/c1ccc(Br)cc1)c1ccc(-c2ccc(Br)cc2)cc1,H37Ra,-,-,-,-,MBC,16 µg/mL
COc1cc(OC)c2c(c1)OC(=O)C(C(C)=O)C2,H37Rv,-,12.5 µg/mL,-,BACTEC,inhibition,3%
COc1ccc(NC(=O)c2c(Nc3cccc(C)c3C)[nH]n3c(=O)cc(C)nc23)cc1,H37Rv,-,-,-,resazurin,MIC,50 µg/mL
Nc1ccc(S(=O)(=O)Nc2ccc(C(=O)O)c(O)c2)cc1,-,-,-,-,-,MIC,1.5 µg/mL
O=C(O)CCc1cnc(C2C3CC4CC(C3)CC2C4)[nH]1,H37Rv,-,-,-,-,MIC,>6.25 µg/mL
C=CCn1cnc2c(-c3ccco3)ncnc21,H37Rv,-,-,-,-,EC50,>6.25 µg/mL
C[C@H](c1ccccc1)N(CC(N)=O)C(=O)CN(C(=O)CNCCC[NH3+])[C@@H](C)c1ccccc1,H37Ra,-,-,-,resazurin,MIC,14.1 µM
Cc1ccc(NC(=O)COc2cc(Cl)c(Cl)cc2Cl)cc1[N+](=O)[O-],H37Rv,-,-,-,BACTEC,MIC bound,>12.5 µg/mL
N#C/C(=C/c1ccccc1[N+](=O)[O-])n1nnc2ccccc21,ATCC 27294,-,-,-,-,MIC50,>100 µM
CC1COc2c(N3CCN(C)CC3)c(F)cc3c(=O)c(C(=O)O)cn1c23,11 strains (drug-resistant),-,-,-,-,MIC50,0.37 µg/mL
COCCOCCOCCOCCOC(=O)CCn1cc(F)c(=O)[nH]c1=O,H37Rv,-,6.25 µg/mL,-,resazurin,inhibition,12%
N#C/C(=C/c1cccc(Cl)c1)n1nnc2ccccc21,ATCC 27294,-,-,-,-,MIC50,51.2 µM
C=CCCC(=O)ONc1cc2[nH]c(C3CCCCC3)nc2cc1Oc1ccc(F)cc1,H37Rv,-,1 µg/mL,-,resazurin,inhibition,54%
Cc1c(NC(=S)Nc2ccc([N+](=O)[O-])cc2)c(=O)n(-c2ccccc2)n1C,H37Rv,-,6.25 µg/mL,-,resazurin,inhibition,9%
O=S(=O)(Nc1cc2[nH]c(C3CCCCC3)nc2cc1SCCc1ccccc1)c1ccccc1,H37Rv,-,1 µg/mL,-,resazurin,inhibition,30%
CC1(C)Oc2ccc(/C=C/C=O)cc2C[C@H]1O,H37Rv,-,-,-,-,MIC,52.4 µg/mL
CC(C)N=c1cc2n(-c3cccnc3)c3ccccc3nc-2cc1Nc1ccc(Cl)cc1,H37Rv,-,-,-,resazurin,MIC90,0.57 µg/mL
OC[C@H]1O[C@@H](n2cnc3c(-c4ccccc4)ncnc32)[C@H](O)[C@@H]1O,H37Rv,-,-,-,-,EC50,>6.25 µg/mL
N#C/C(=C/c1ccccc1I)n1nnc2ccccc21,ATCC 27294,-,-,-,-,MIC50,11.3 µM
COc1ccc2c(c1)C(CC(=O)NN)CCC2,H37Rv,-,-,-,BACTEC,MIC,≥12.5 µg/mL
NNC(=O)c1ccncc1,1896-HF INHr,-,-,-,resazurin,MIC100,2 µg/mL
CC[C@@H](CO)NCCN[C@@H](CC)CO,H37Rv,-,-,-,-,MIC,6.25 µg/mL
CC(C)c1ncc(C(=O)NN)[nH]1,H37Rv,-,-,-,-,MIC,>6.25 µg/mL
CC(C)N=c1cc2n(-c3ccc(Cl)cc3)c3ccccc3nc-2cc1Nc1cccnc1,H37Rv,-,-,-,resazurin,MIC90,0.07 µg/mL
CC1=C(c2c(C)cc(O)c3c2C(=O)C(c2c(O)c4c(C)cccc4oc2=O)=C(c2c(O)c4c(C)cccc4oc2=O)C3=O)C(=O)c2c(O)cccc2C1=O,MTCS2,-,-,-,-,MIC,1.22 µg/mL
CCOc1ccc(NC(=O)c2c(Nc3ccccc3)[nH]n3c(=O)cc(C)nc23)cc1,H37Rv,-,-,-,resazurin,MIC,50 µg/mL
O=C(N/N=C/c1ccccc1S(=O)(=O)[O-])C(=O)N/N=C/c1ccccc1S(=O)(=O)[O-].[Na+].[Na+],H37Rv,-,12.5 µg/mL,-,BACTEC,inhibition,0%
CCOC(=O)c1ccc(NS(=O)(=O)c2ccc(NC3=CC(=O)c4ccccc4C3=O)cc2)cc1O,-,-,-,-,-,MIC,1.5 µg/mL
Brc1cncnc1-c1ccc(-c2ccccc2)s1,terrae,-,-,Rifampicin- and isoniazid-resistant,broth dilution,MIC,0.7 µg/mL
O=C(/C=C/c1cc(Cl)cc(Cl)c1)NNC(=O)c1ccncc1,H37Rv,-,-,-,resazurin,MIC,67.4 µM
COc1ccccc1NC(=O)c1c(Nc2cccc(C)c2)[nH]n2c(=O)cc(C)nc12,H37Rv,-,-,-,resazurin,MIC,3.12 µg/mL
Nn1cnc2cc3ccccc3cc2c1=O,H37Rv,-,-,-,BACTEC,MIC bound,>12.5 µg/mL
CCC(CC)c1nc2c([nH]1)C1=NC(=O)/C(C)=C\C=C\[C@H](C)[C@H](O)[C@@H](C)[C@@H](O)[C@@H](C)[C@H](OC(C)=O)[C@H](C)[C@@H](OC)/C=C/O[C@@]3(C)Oc4c(C)c(O)c(c-2c4C3=O)C1=O,H37Rv,-,-,-,-,MIC,0.002 µg/mL
NNC(=O)CCCCC(=O)NN,-,-,0.125 µg/mL,-,-,inhibition,60%
NNC(=O)c1cnc(C2CCCC2)[nH]1,H37Rv,-,6.25 µg/mL,-,-,inhibition,1%
CCOC(=O)C(NC(=O)c1cccc(Cl)c1)(N1CCN(c2cc3c(cc2F)c(=O)c(C(=O)O)cn3CC)CC1)C(F)(F)F,H37Rv,VERO,-,-,-,MIC,6.25 µg/mL
O=C(NNS(=O)(=O)c1ccc(NC2=CC(=O)c3ccccc3C2=O)cc1)c1ccccc1O,-,-,-,-,-,MIC,0.12–0.24 µg/mL
CCCCCCCCCC#CCCC#CC(=O)O,H37Rv,-,-,-,-,MIC,145 µM
O=C(/C=C/c1cccc(Cl)c1)NNC(=O)c1ccncc1,H37Rv,-,-,-,resazurin,MIC,83 µM
C=CCSc1ncnc2[nH]ncc12,H37Rv,-,-,-,-,MIC,260 µg/mL
CCN1CCC2(CC1)N=c1c(c3c4c5c(C)c(O)c3c(O)c1=NC(=O)/C(C)=C\C=C\[C@H](C)[C@H](O)[C@@H](C)[C@@H](O)[C@@H](C)[C@H](OC(C)=O)[C@H](C)[C@@H](OC)/C=C/O[C@@](C)(O5)C4=O)N2,H37Rv,-,-,-,-,MIC,0.009 µg/mL
COc1ccc(COC(=O)C2=C(CN3CCN(c4nc(=O)c5cc(C(Cl)(Cl)Cl)cc([N+](=O)[O-])c5s4)CC3)CSC3[C@H](NC(=O)Cc4ccccc4)C(=O)N23)cc1,H37Rv,-,-,-,resazurin,MIC,>100 µM
N#C/C(=C\c1ccc(Cl)cc1Cl)n1nnc2ccccc21,ATCC 27294,-,-,-,-,MIC90,>100 µM
Cc1ccc(-c2cnnc(N3CCC(c4cccc(F)c4)C3)n2)o1,H37Rv,-,-,-,-,MIC,47.9 µM
CCOC(=O)c1cnc(C2CCCC2)[nH]1,H37Rv,-,6.25 µg/mL,-,-,inhibition,16%
C=C1C(=O)C23OC2C1CCC(=O)C1(C)CCC(OC(C)=O)C(C)(C)C1CC3=O,H37Rv,-,12.5 µg/mL,-,BACTEC,inhibition,94%
O=C(O)c1cnc(C2CCCCC2)[nH]1,H37Rv,-,-,-,-,MIC,>6.25 µg/mL
COc1ccc(Cc2c(C)c(C#N)c3[nH]c4ccccc4n3c2=O)cc1,R506,-,-,-,resazurin,MIC90,0.5 µg/mL
O=C(O)c1cnccn1,M6733,-,-,-,-,MIC,240 µg/mL
CC1COc2c(N3CCN(C)CC3)c(F)cc3c(=O)c(C(=O)O)cn1c23,001-013 (drug-resistant),-,-,-,-,MBC,4 µg/mL
C[C@H]1C(=O)c2c(cc(O)c(C3OC(CO)C(O)C(O)C3O)c2O)O[C@@H]1c1ccc(O)c(O)c1,H37Rv,-,12.5 µg/mL,-,BACTEC,inhibition,0%
Clc1nc(-c2ccccc2)c2ncn(Cc3ccccc3)c2n1,H37Rv,-,-,-,-,EC50,<6.25 µg/mL
c1cc2c3c(cccc3c1)NC1(CCC3(CC1)Nc1cccc4cccc(c14)N3)N2,H37Rv,-,-,-,BACTEC,MIC,8 µg/mL
Clc1nc(-c2cccs2)c2ncn(Cc3ccccc3)c2n1,H37Rv,VERO,-,-,-,EC50,<6.25 µg/mL
O=C1OS(=O)(=O)Nc2ccccc21,H37Rv,-,6.25 µg/mL,-,resazurin,inhibition,-18%
C(=C\c1cncnc1-c1ccc(-c2cccs2)s1)/c1ccc(-c2ccccc2)cc1,MDR,-,-,Rifampicin- and isoniazid-resistant,broth dilution,MIC,1.5 µg/mL
CCCCCCCCN1CSC(=S)N(c2ccc3[nH]c(=S)sc3c2)C1,H37Rv,-,-,-,BACTEC,MIC bound,>12.5 µg/mL
O=C(/C=C/c1ccc(O)c(O)c1)NNC(=O)c1ccncc1O,H37Rv,-,-,-,resazurin,MIC,18.5 µM
CCN(CC)CCNc1ccc(CO)c2oc3ccccc3c(=O)c12,H37Rv,-,12.5 µg/mL,-,BACTEC,inhibition,-5%
COc1ccc(Nc2[nH]n3c(=O)cc(C)nc3c2C(=O)Nc2ccc(F)c(Cl)c2)cc1,H37Rv,-,-,-,resazurin,MIC,25 µg/mL
COc1c2c(cc3c1C1Oc4c(ccc(O)c4CC=C(C)C)C1CO3)OC(C)(C)C=C2,EMB-R,-,-,-,-,MIC,12.5 µg/mL
N#C/C(=C\c1cccc([N+](=O)[O-])c1)n1nnc2ccccc21,ATCC 27294,-,-,-,-,MIC90,>100 µM
CC1CN(/N=C/c2ccc([N+](=O)[O-])o2)C(=O)O1,H37Rv,-,-,-,resazurin,MIC bound,>6.25 µg/mL
CO[C@H]1/C=C/O[C@@]2(C)Oc3c(C)c(O)c4c(c3C2=O)-c2nc(-c3ccccc3)[nH]c2C(=NC(=O)/C(C)=C\C=C\[C@H](C)[C@H](O)[C@@H](C)[C@@H](O)[C@@H](C)[C@H](OC(C)=O)[C@@H]1C)C4=O,H37Rv,-,-,-,-,MIC,0.002 µg/mL
CN1CCCC1CN1c2ccccc2Sc2ccccc21,H37Rv,-,12.5 µg/mL,-,BACTEC,inhibition,35%
CCOc1ccc(NC(=O)c2c(Nc3ccc(C)cc3C)[nH]n3c(=O)cc(C)nc23)cc1,H37Rv,-,-,-,resazurin,MIC,50 µg/mL

Again, the opening 7 rows:

smiles	strain	cells	dose	mutations	read by	measure	value
c1csc(-c2ncnc3nc[nH]c23)c1	H37Rv	-	-	-	-	EC50	>6.25 µg/mL
COc1ccccc1/C=C(\C#N)n1nnc2ccccc21	ATCC 27294	-	-	-	-	MIC90	80.2 µM
COc1ccc2c(c1)c(CC(=O)NN)c(C)n2C(=O)c1ccc(Cl)cc1	-	-	-	-	-	EC50	<0.125 µg/mL
O=C(CNC(=O)Nc1n[nH]c(=S)s1)N/N=C/c1ccc2c(c1)OCO2	H37Rv	-	12.5 µg/mL	-	BACTEC	inhibition	2%
O=C(NCC(=O)N1CCN(c2ccc(N3C[C@H](Cn4ccnn4)OC3=O)cc2F)CC1)C1=CC=C([N+](=O)[O-])C1	SRI 1367	-	-	Rifampicin-resistant	broth dilution / visual reading	MIC	0.46 µM
NNC(=O)CCc1cnc(C2C3CC4CC(C3)CC2C4)[nH]1	H37Rv	-	6.25 µg/mL	-	-	inhibition	14%
Cc1ccc(-n2c3cc(=NC(C)C)c(Nc4ccc(Cl)cc4)cc-3nc3ccccc32)cc1	H37Rv	-	-	-	resazurin	MIC90	>42.45 µg/mL